Anti-infective test results gathered from many reports (values: NIAID ChemDB through PubChem).

Common to all: tests in culture; agent: Mycobacterium avium intracellulare; read-out: MIC

Lines come from different laboratories, so protocols vary.

compound,strain or isolate,result
CN[C@@H]1[C@H](O[C@H]2[C@H](O[C@H]3[C@H](O)[C@@H](O)[C@H](N=C(N)N)[C@@H](O)[C@@H]3N=C(N)N)O[C@@H](C)[C@]2(O)C=O)O[C@@H](CO)[C@H](O)[C@H]1O,CIPT 140310021,>50 µg/mL
NNC(=O)c1ccncc1,N-481 (HIV-),8 µg/mL
CN(C)CCCN1c2ccccc2Sc2ccc(Cl)cc21,R 8411,12.5 µg/mL
CC(=O)NC[C@H]1CN(c2ccc(N3CCN(c4ccc([N+](=O)[O-])s4)CC3)c(F)c2)C(=O)O1,18/98,0.25 µg/mL
CCO/N=C1\[C@H](C)CC(C)(O)[C@H](O[C@@H]2O[C@H](C)C[C@H](N(C)C)[C@H]2O)[C@@H](C)[C@H](O[C@H]2C[C@@](C)(OC)[C@@H](OC(C)=O)[C@H](C)O2)[C@@H](C)C(=O)O[C@H](CC)[C@@](C)(O)[C@H](O)[C@H]1C,20066 (clarithromycin-susceptible),>50 µg/mL
CC[C@H]1OC(=O)[C@H](C)[C@@H](O[C@H]2C[C@@](C)(OC)[C@@H](O)[C@H](C)O2)[C@H](C)[C@@H](O[C@@H]2O[C@H](C)C[C@H](N(C)C)[C@H]2O)[C@](C)(OC)C[C@@H](C)C(=O)[C@H](C)[C@@H](O)[C@]1(C)O,N-919 (HIV-),0.125 µg/mL
CC[C@H]1OC(=O)[C@H](C)[C@@H](O[C@H]2C[C@@](C)(OC)[C@@H](OC(C)=O)[C@H](C)O2)[C@H](C)[C@@H](O[C@@H]2O[C@H](C)C[C@H](N(C)C)[C@H]2OC(=O)NN(C)C)C(C)(O)C[C@@H](C)/C(=N\OCCCC2CCCCC2)[C@H](C)[C@@H](O)[C@]1(C)O,20066 (clarithromycin-susceptible),1.56 µg/mL
CCCCCNC(=O)O[C@H]1C(O[C@@H]2[C@@H](C)[C@H](O[C@H]3C[C@@](C)(OC)[C@@H](OC(C)=O)[C@H](C)O3)[C@@H](C)C(=O)O[C@H](CC)[C@@](C)(O)[C@H](O)[C@@H](C)/C(=N/OCCCC3CCCCC3)[C@H](C)CC2(C)O)O[C@H](C)C[C@@H]1N(C)C,20066,0.1 µg/mL
CO[C@H]1/C=C/O[C@@]2(C)Oc3c(C)c(O)c4c(=O)c(c5oc6cc(N7CCN(CC(C)C)CC7)cc(=O)c6nc5c4c3=C2O)NC(=O)/C(C)=C\C=C\[C@H](C)[C@H](O)[C@@H](C)[C@@H](O)[C@@H](C)[C@H](OC(C)=O)[C@@H]1C,N-481 (HIV-),≤0.0125 µg/mL
CO[C@H]1/C=C/O[C@@]2(C)Oc3c(C)c(O)c4c(O)c(c5c(c4c3C2=O)NC2(CCN(CC(C)C)CC2)N=5)=NC(=O)/C(C)=C\C=C\[C@H](C)[C@H](O)[C@@H](C)[C@@H](O)[C@@H](C)[C@H](OC(C)=O)[C@@H]1C,SHE,1 µg/mL
NC[C@H]1O[C@H](O[C@H]2[C@H](O)[C@@H](O[C@H]3O[C@H](CO)[C@@H](O)[C@H](N)[C@H]3O)[C@H](N)C[C@@H]2N)[C@H](O)[C@@H](O)[C@@H]1O,CIPT 140310030,5 µg/mL
CCCCCCC(=O)O[C@H]1[C@H](C)[C@@H](O[C@@H]2O[C@H](C)C[C@H](N(C)C)[C@H]2O)C(C)(O)C[C@@H](C)/C(=N\OCCCOc2ccccc2)[C@H](C)[C@@H](O)[C@](C)(O)[C@@H](CC)OC(=O)[C@@H]1C,20066 (clarithromycin-susceptible),3.13 µg/mL
CC(C)N=c1cc2n(-c3ccc(Cl)cc3)c3ccccc3nc-2cc1Nc1ccc(Cl)cc1,P2,5 µg/mL
CC[C@H]1OC(=O)[C@H](C)[C@@H](OC2C[C@@](C)(OC)[C@@H](O)[C@H](C)O2)[C@H](C)[C@@H](O[C@@H]2O[C@H](C)C[C@H](N(C)C)[C@H]2O)C(C)(O)C[C@@H](C)/C(=N\OCCCC2CCCCC2)[C@H](C)[C@@H](O)[C@]1(C)O,20066 (clarithromycin-susceptible),6.25 µg/mL
CO[C@H]1/C=C/O[C@@]2(C)Oc3c(C)c(O)c4c(O)c(c5c(c4c3C2=O)NC2(CCN(CC(C)C)CC2)N=5)=NC(=O)/C(C)=C\C=C\[C@H](C)[C@H](O)[C@@H](C)[C@@H](O)[C@@H](C)[C@H](OC(C)=O)[C@@H]1C,N-481 (HIV-),0.1 µg/mL
CCCCNC(=O)O[C@H]1C(O[C@@H]2[C@@H](C)[C@H](O[C@H]3C[C@@](C)(OC)[C@@H](OC(C)=O)[C@H](C)O3)[C@@H](C)C(=O)O[C@H](CC)[C@@](C)(O)[C@H](O)[C@@H](C)/C(=N/OCCCC3CCCCC3)[C@H](C)CC2(C)O)O[C@H](C)C[C@@H]1N(C)C,20066,0.2 µg/mL
CC[C@H]1OC(=O)[C@H](C)[C@@H](OC2C[C@@](C)(OC)[C@@H](OC(=O)c3ccccc3)[C@H](C)O2)[C@H](C)[C@@H](O[C@@H]2O[C@H](C)C[C@H](N(C)C)[C@H]2O)C(C)(O)C[C@@H](C)/C(=N\OCCCOc2ccccc2)[C@H](C)[C@@H](O)[C@]1(C)O,20066 (clarithromycin-susceptible),1.56 µg/mL
CC[C@H]1OC(=O)[C@H](C)[C@@H](O[C@H]2C[C@@](C)(OC)[C@@H](OC(C)=O)[C@H](C)O2)[C@H](C)[C@@H](OC2O[C@H](C)C[C@H](N(C)C)[C@H]2OC(=O)NCCCCCCCCCCCCCCN(C)C)C(C)(O)C[C@@H](C)/C(=N\OCCCC2CCCCC2)[C@H](C)[C@@H](O)[C@]1(C)O,20075,0.78 µg/mL
CC[C@H]1OC(=O)[C@H](C)[C@@H](OC2C[C@@](C)(OC)[C@@H](OC(=O)C(C)C)[C@H](C)O2)[C@H](C)[C@@H](O[C@@H]2O[C@H](C)C[C@H](N(C)C)[C@H]2O)C(C)(O)C[C@@H](C)/C(=N\OCCCOc2ccccc2)[C@H](C)[C@@H](O)[C@]1(C)O,20066 (clarithromycin-susceptible),1.56 µg/mL
OCCN1CCN(CC/C=C2\c3ccccc3Sc3ccc(C(F)(F)F)cc32)CC1,ATCC 23432,6.25 µg/mL
CC[C@H]1OC(=O)[C@H](C)[C@@H](O[C@H]2C[C@@](C)(OC)[C@@H](OC(C)=O)[C@H](C)O2)[C@H](C)[C@@H](O[C@@H]2O[C@H](C)C[C@H](N(C)C)[C@H]2O)C(C)(O)C[C@@H](C)/C(=N\OCCCCc2ccccc2)[C@H](C)[C@@H](O)[C@]1(C)O,20066 (clarithromycin-susceptible),1.56 µg/mL
Cc1onc(-c2ccccc2Cl)c1C(=O)N[C@@H]1C(=O)N2[C@@H]1SC(C)(C)[C@@H]2C(=O)O,CIPT 140310023,50 µg/mL
COc1ccc2c(c1)N(C[C@H](C)CN(C)C)c1ccccc1S2,V 915,50 µg/mL
C[C@@H](O)[C@H]1C(=O)N2C(C(=O)O)=C(SCCN=CN)C[C@H]12,CIPT 140310019,10 µg/mL
OCCN1CCN(CCC=C2c3ccccc3Sc3ccc(Cl)cc32)CC1,R 8656,12.5 µg/mL
CCCCCCCCCCCCCCN(C)C(=O)O[C@H]1C(O[C@@H]2[C@@H](C)[C@H](O[C@H]3C[C@@](C)(OC)[C@@H](OC(C)=O)[C@H](C)O3)[C@@H](C)C(=O)O[C@H](CC)[C@@](C)(O)[C@H](O)[C@@H](C)/C(=N/OCCCC3CCCCC3)[C@H](C)CC2(C)O)O[C@H](C)C[C@@H]1N(C)C,20066,0.2 µg/mL

Repeating the first 2 entries:

compound,strain or isolate,result
CN[C@@H]1[C@H](O[C@H]2[C@H](O[C@H]3[C@H](O)[C@@H](O)[C@H](N=C(N)N)[C@@H](O)[C@@H]3N=C(N)N)O[C@@H](C)[C@]2(O)C=O)O[C@@H](CO)[C@H](O)[C@H]1O,CIPT 140310021,>50 µg/mL
NNC(=O)c1ccncc1,N-481 (HIV-),8 µg/mL